This note sets out measurements from ChEMBL document CHEMBL3430912, “GSK Tres Cantos Anti-Kinetoplastid Screening (TCAKS) Data”.

By UniProt entry, the sequences of proteins in these tests, tags left out.
UniProt Q7Z1V1, whole entry: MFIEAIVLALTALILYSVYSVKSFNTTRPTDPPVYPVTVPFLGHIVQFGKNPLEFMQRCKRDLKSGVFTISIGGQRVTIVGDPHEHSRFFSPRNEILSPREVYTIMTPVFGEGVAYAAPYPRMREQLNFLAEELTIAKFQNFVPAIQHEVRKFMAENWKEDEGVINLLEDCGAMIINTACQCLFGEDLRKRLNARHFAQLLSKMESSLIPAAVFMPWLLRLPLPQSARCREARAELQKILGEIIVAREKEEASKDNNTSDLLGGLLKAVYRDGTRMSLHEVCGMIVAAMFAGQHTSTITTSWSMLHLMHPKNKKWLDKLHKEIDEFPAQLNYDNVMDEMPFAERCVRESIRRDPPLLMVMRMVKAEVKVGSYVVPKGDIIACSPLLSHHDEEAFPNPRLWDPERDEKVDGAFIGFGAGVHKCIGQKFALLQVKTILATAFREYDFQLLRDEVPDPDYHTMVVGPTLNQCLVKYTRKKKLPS

The experiment has as its target Sterol 14-alpha demethylase (Trypanosoma cruzi (strain CL Brener), UniProt Q7Z1V1). Nature of the experiment: GSK_TCAKS: pIC50 CYP51 from Trypanosoma cruzi. The class given is functional.

What is called pIC50 is the IC50 on a negative log10 scale, so that one unit is a factor of ten. Read a low pIC50 as a high IC50. In turn, `O=C(Cc1ccc(F)cc1)N(Cc1cccnc1)C1CCN(CCc2cccs2)CC1` registered a pIC50 of 7.6.
